Assay: pH of platelet-rich plasma on exposure to CO2
Parameters: species or system human

In the case of `O=C=O` [CO2], the “pH of PRP after equilibration with CO2” value (99% CO2 under positive flow, typically within 60 seconds, fall from 7.2) is reported as 6.4 and the “pH of PRP after CO2” value (99.9% CO2 at air/fluid interface for approximately 60 seconds, dropped from average 7.4) is reported as 6.4.
